Results of unrelated studies side by side (data: NIAID ChemDB).

Common to all: enzyme or target tests

Blank or dashed fields: not listed here.

compound | method | read-out | target | agent | changes | tested at | strain | result
Nc1nc2c(ncn2[C@H]2C[C@H](O)[C@@H](COP(=O)(O)OP(=O)(O)OP(=O)(O)O)O2)c(=O)[nH]1 | nucleotide incorporation / radiometric | fold resistance | Reverse transcriptase | HIV-1 | RT-M184V | - | - | 0.42
CC(C)CN(C[C@@H](O)[C@H](Cc1ccccc1)NC(=O)OCc1ccccc1)S(=O)(=O)c1ccc(N)cc1 | fluorescence | IC50 | Protease | HIV | - | - | - | 0.012 µM
O=C1c2c(O)cc(O[C@@H]3C[C@@H](O)[C@H](O)[C@@H](CO)O3)cc2O[C@H](c2ccc(O)cc2)[C@H]1O | ELISA | inhibition | gp120 | HIV-1 | - | 250 µg/mL | - | 30%
Oc1cc(O)c2c(c1)O[C@H](c1cc(O)c(O)c(O)c1)[C@H](O)C2 | ELISA | inhibition | gp120 | HIV-1 | - | 10 µg/mL | IIIB | 0%
Nc1ccn([C@H]2C[C@H](O)[C@@H](COP(=O)(O)OP(=O)(O)OP(=O)(O)O)O2)c(=O)n1 | nucleotide incorporation / radiometric | fold resistance | Reverse transcriptase | HIV-1 | RT-A62V V75I F77L F116Y Q151M | - | - | 1.1
O=C(/C=C/c1ccc(O)c(O)c1)O[C@H]1[C@H](O)[C@@H](O)[C@H](OCCc2ccc(O)c(O)c2)O[C@@H]1CO | ELISA | inhibition | gp41 | HIV-1 | - | 50 µg/mL | - | 0%
O=C(O)c1cc(C(O)(c2ccc(O)c(C(=O)O)c2)c2ccc(O)c(C(=O)O)c2)ccc1O | substrate cleavage | IC50 | Integrase | HIV | - | - | - | 10–50 µM
O=C1N(Cc2ccc(CO)cc2)[C@H](COc2ccccc2)[C@H](O)[C@@H](O)[C@@H](COc2ccccc2)N1Cc1ccc(CO)cc1 | fluorescence | Ki | Protease | HIV | PR-V82A | - | - | 0.00024 µM
Cc1cccc(C)c1OCC(=O)N[C@@H](Cc1ccccc1)[C@H](O)CN1CC[C@@H](Sc2ccncc2)C[C@H]1C(=O)NC(C)(C)C | fluorescence | Ki | Protease | HIV | PR-V32I M46I A71V I84A | - | - | 0.02477 µM
O=C1C[C@@H](c2ccc(O)cc2)Oc2cc(O[C@@H]3C[C@@H](O)[C@H](O)[C@@H](CO)O3)cc(O)c21 | ELISA | inhibition | gp120 | HIV-1 | - | 80 µg/mL | - | 53%
O=C(O[C@@H]1Cc2c(O)cc(O)cc2O[C@@H]1c1ccc(O)c(O)c1)c1cc(O)c(O)c(O)c1 | ELISA | inhibition | gp120 | HIV-1 | - | 0.4 µg/mL | IIIB | 37%
O=C1c2c(O)cc(O)cc2O[C@H](c2ccc(O)cc2)[C@H]1O | ELISA | IC50 | gp120 | HIV-1 | - | - | - | <60 µg/mL
CC[C@H]1C(=O)Nc2ccc(F)cc2N1C(=O)OC(C)C | nucleotide incorporation / radiometric | fold resistance | Reverse transcriptase | HIV | RT-N137Q | - | - | 0.64
CC(C)[C@H](N)C(=O)O.[Na+] | p24 / ELISA | IC50 | Capsid | HIV-1 | - | - | - | 0.68 µM
CC(C)CN(C[C@@H](O)[C@H](Cc1ccccc1)NC(=O)OCc1cccnc1)S(=O)(=O)c1ccc2nc(N)sc2c1 | fluorescence | IC50 | Protease | HIV | - | - | - | 0.004 µM
CC[C@H]1C=CCC[C@@]2(C[C@@H]3CC[C@@H]4[C@H](C(=O)OCCCCCC(=O)N(CCC[NH3+])C[C@@H](O)CC[NH3+])[C@]5(CCC[C@@H](C)O5)NC(=[N+]34)N2)O1 | ELISA | inhibition | Nef | HIV-1 | - | 5 µM | NL4-3 | 80.6%
c1ccc(C2SCc3nc4ccccc4n32)cc1 | - | fold resistance | Reverse transcriptase | HIV-1 | RT-Y181I | - | - | >2
NOCc1c(F)cccc1Cl | ELISA | inhibition | gp120 | HIV-1 | - | 0.8 µg/mL | - | 9.2%
CC(C)CN(C[C@@H](O)[C@H](Cc1ccccc1)NC(=O)OCc1cncs1)S(=O)(=O)c1ccc2nc(N)sc2c1 | fluorescence | IC50 | Protease | HIV | - | - | - | 0.003 µM
CCCCCCCCC[C@@H]1C[C@@H]2CC[C@H]3C(C(=O)OC(C)(C)C)=C(C)NC(=[N+]23)N1 | ELISA | inhibition | Nef | HIV-1 | - | 5 µM | NL4-3 | 96.8%
CC1CNCCN1S(=O)(=O)c1cccc2cnccc12 | - | Ki | Tat:TAR/LTR | HIV-1 | - | - | LAV | 6 µM
O=C(O)C1=CC(=C(c2ccc(O)c(C(=O)O)c2)c2ccc(O)c(C(=O)O)c2)C=CC1=O | substrate cleavage | IC50 | Integrase | HIV | - | - | - | 12 µM
CC(C)[C@H](NC(=O)c1ccc2ccccc2n1)C(=O)N[C@@H](Cc1ccccc1)[C@H](O)CN1CC[C@@H](OCc2ccncc2)C[C@H]1C(=O)NC(C)(C)C | fluorescence | IC50 | Protease | HIV-2 | - | - | ROD | 0.01 µM
O=C(/C=C/c1ccc(O)c(O)c1)OC[C@H]1O[C@@H](OCCc2ccc(O)c(O)c2)[C@H](O)[C@@H](O)[C@@H]1O | ELISA | inhibition | gp41 | HIV-1 | - | 50 µg/mL | - | 25%
Nc1nc2c(ncn2[C@H]2CC[C@@H](COP(=O)(O)OP(=O)(O)OP(=O)(O)O)O2)c(=O)[nH]1 | nucleotide incorporation / radiometric | IC50 | Reverse transcriptase | HIV | RT-N137S | - | - | 0.39 µM
Cc1ccccc1C(=O)N[C@@H](Cc1ccccc1)[C@H](O)CN(CC(C)C)S(=O)(=O)c1ccc2ncsc2c1 | fluorescence | IC50 | Protease | HIV | - | - | - | 0.004 µM
C[C@@H]1O[C@@H](Oc2c(-c3ccc(O)c(O)c3)oc3cc(O)cc(O)c3c2=O)[C@H](O)[C@H](O)[C@H]1O | - | IC50 | RNase H | HIV-1 | - | - | - | >500 µM
O=C(/C=C/c1ccc(O)c(O)c1)O[C@H]1[C@H](O)C[C@](O)(C(=O)O)C[C@H]1OC(=O)/C=C/c1ccc(O)c(O)c1 | ELISA | inhibition | gp120 | HIV-1 | - | 40 µg/mL | - | >80%
CCCCCCC[C@H](O)C[C@@H]1CC[C@H]2C(C(=O)O[C@H](C)CCCCCCC[C@@H]3C[C@@H]4CC[C@@H]5C[C@H](C)NC(=[N+]54)N3)=C(C)NC(N)=[N+]12 | ELISA | IC50 | Nef | HIV-1 | - | - | NL4-3 | <5 µM
CCOC(=O)C(C(=O)OCC)c1cn(S(=O)(=O)c2ccc(C)cc2)c2ccc(NC(=O)c3ccc(OC)cc3)cc12 | strand transfer / fluorescence | fold resistance | Integrase | HIV-1 | Y143R | - | - | 1
Cc1cn([C@H]2C=C[C@@H](COP(=O)(O)OP(=O)(O)OP(=O)(O)O)O2)c(=O)[nH]c1=O | nucleotide incorporation / radiometric | IC50 | Reverse transcriptase | HIV | RT-N137Y | - | - | 2.6 µM
COc1cc(C[C@@]2(O)CO[C@H](c3ccc(O)c(OC)c3)[C@H]2CO)ccc1O | ELISA | IC50 | gp41 | HIV-1 | - | - | - | >50 µg/mL
CC(C)CN(C[C@@H](O)[C@H](Cc1ccccc1)NC(=O)OCc1ccccc1)S(=O)(=O)c1ccc2sc(N)nc2c1 | fluorescence | IC50 | Protease | HIV | - | - | - | 0.047 µM
CNC(=O)[C@@H](NC(=O)[C@H](OCc1ccccc1)[C@H](O)[C@@H](O)[C@@H](OCc1ccccc1)C(=O)N[C@H]1c2ccccc2C[C@H]1O)C(C)C | - | fold resistance | Protease | HIV | PR-V82A I84V L90M | - | - | 7.5
CC[C@H]1C=CCC[C@@]2(C[C@@H]3CC[C@H]4[C@H](C(=O)OCCCCCCCCCCCCCCCC(=O)N(CCC[NH3+])C[C@@H](O)CC[NH3+])[C@@]5(CCC[C@@H](C)O5)NC(=[N+]34)N2)O1 | ELISA | IC50 | Nef | HIV-1 | - | - | NL4-3 | <5 µM
O=S1(=O)N(Cc2cccc(I)c2)[C@H](COc2ccccc2)[C@H](O)[C@@H](O)[C@@H](COc2ccccc2)N1Cc1cccc(I)c1 | - | fold resistance | Protease | HIV-1 | PR-G48V L90M | - | - | 6.58
CC(C)(N)C(=O)O.[Na+] | p24 / ELISA | IC50 | Capsid | HIV-1 | - | - | - | 0.85 µM
Cc1ccc(S(=O)(=O)n2cc(/C(O)=C/C(=O)C(=O)O)c3cc(F)ccc32)cc1 | strand transfer / fluorescence | fold resistance | Integrase | HIV-1 | G140S | - | - | 5
CC(C)CN(C[C@@H](O)[C@H](Cc1ccccc1)NC(=O)OCc1cncs1)S(=O)(=O)c1ccc2ncsc2c1 | fluorescence | IC50 | Protease | HIV | - | - | - | 0.005 µM
O=C(O)C(=O)/C=C(\O)c1cn(Cc2cc(F)ccc2F)c2ccc(Br)cc12 | strand transfer / fluorescence | fold resistance | Integrase | HIV-1 | Y143R | - | - | 1
CC(C)C[C@H](N)C(=O)O.[Na+] | p24 / ELISA | IC50 | Capsid | HIV-1 | - | - | - | 0.71 µM
COC(O)/C=C/c1ccc2c(c1)c(C(=O)/C=C1\OC(C)(C)OC1=O)cn2Cc1ccc(F)cc1 | strand transfer / fluorescence | fold resistance | Integrase | HIV-1 | G140S | - | - | 0.9
Cc1cc(SC2=C(O)C[C@@](CCc3ccc(O)cc3)(C(C)C)OC2=O)c(C(C)(C)C)cc1N | HPLC | inhibition | Protease | HIV | - | 10 µM | - | 24.5%
C[C@@H]1O[C@@H](O[C@@H]2[C@@H](O)[C@H](OCCc3ccc(O)c(O)c3)O[C@H](CO)[C@H]2OC(=O)/C=C/c2ccc(O)c(O)c2)[C@H](O)[C@H](O)[C@H]1O | ELISA | inhibition | gp41 | HIV-1 | - | 50 µg/mL | - | 8%
Nc1ncnc2c1ncn2CCOCP(=O)(O)OP(=O)(O)OP(=O)(O)O | nucleotide incorporation / radiometric | fold resistance | Reverse transcriptase | HIV-1 | RT-Q151M | - | - | 1.1
CC(C)[C@H](NC(=O)c1ccc2ccccc2n1)C(=O)N[C@@H](Cc1ccccc1)[C@H](O)CN1CC[C@@H](SCc2cccnc2)C[C@H]1C(=O)NC(C)(C)C | fluorescence | fold resistance | Protease | HIV | PR-V32I M46I A71V I84A | - | - | 11900
Nc1ccn([C@H]2CC[C@@H](COP(=O)(O)OP(=O)(O)OP(=O)(O)O)O2)c(=O)n1 | nucleotide incorporation / radiometric | fold resistance | Reverse transcriptase | HIV-1 | RT-Q151M | - | - | 2.44
Oc1cc(O)c2c(c1)O[C@H](c1ccc(O)c(O)c1)[C@H](O)C2 | ELISA | inhibition | gp120 | HIV-1 | - | 0.5 µg/mL | IIIB | 17%

The last 4 rows once more:

compound	method	read-out	target	agent	changes	tested at	strain	result
Nc1ncnc2c1ncn2CCOCP(=O)(O)OP(=O)(O)OP(=O)(O)O	nucleotide incorporation / radiometric	fold resistance	Reverse transcriptase	HIV-1	RT-Q151M	-	-	1.1
CC(C)[C@H](NC(=O)c1ccc2ccccc2n1)C(=O)N[C@@H](Cc1ccccc1)[C@H](O)CN1CC[C@@H](SCc2cccnc2)C[C@H]1C(=O)NC(C)(C)C	fluorescence	fold resistance	Protease	HIV	PR-V32I M46I A71V I84A	-	-	11900
Nc1ccn([C@H]2CC[C@@H](COP(=O)(O)OP(=O)(O)OP(=O)(O)O)O2)c(=O)n1	nucleotide incorporation / radiometric	fold resistance	Reverse transcriptase	HIV-1	RT-Q151M	-	-	2.44
Oc1cc(O)c2c(c1)O[C@H](c1ccc(O)c(O)c1)[C@H](O)C2	ELISA	inhibition	gp120	HIV-1	-	0.5 µg/mL	IIIB	17%

a–b is a range or a potency band. Percent inhibition refers to the dose given; in toxicity tests it is the harm to the cells. Rows are shuffled and stem from different studies. Fold resistance has wild type as its base. ICn is the concentration giving n% inhibition.